Measured values from patent publication US6706740B2, “Fungicidal heterocyclic aromatic amides and their compositions, methods of use and preparation” (Dow AgroSciences LLC, priority 1999, dated 2004).

How the values were obtained:
[1] = system: Puccinia recondita—PUCCRT; assay: Brown Rust of Wheat, in vivo whole plant, 24 Hour Protectant; conditions: 100 ppm spray, % control of fungal infection vs untreated plants
Septoria tritici—SEPTTR = assay: Leaf Blotch of Wheat, in vivo whole plant, 24 Hour Protectant; conditions: 100 ppm spray, % control of fungal infection vs untreated plants
[2] = system: Phytophthora infestans—PHYTIN; assay: Late Blight of Tomato, in vivo whole plant, 24 Hour Protectant; conditions: 100 ppm spray, % control of fungal infection vs untreated plants
[3] = system: Leptosphaeria nodorum—LEPTNO; assay: Glume Blotch of Wheat, in vivo whole plant, 24 Hour Protectant; conditions: 100 ppm spray, % control of fungal infection vs untreated plants
[4] = system: Plasmopara viticola—PLASVI; assay: Downy Mildew of Grape, in vivo whole plant, 24 Hour Protectant; conditions: 100 ppm, % control of fungal infection vs untreated plants
Erysiphe graminis—ERYSGT = assay: Powdery Mildew of Wheat, in vivo whole plant, 24 Hour Protectant; conditions: 100 ppm spray, % control of fungal infection vs untreated plants

COc1ccnc(C(=O)N[C@H]2COC(=O)[C@H](Cc3ccccc3)[C@@H](OC(=O)C(C)C)[C@H](C)OC2=O)c1OC(=O)N(C)C
PUCCRT in vivo 1 Day Protectant [1]: + + | SEPTTR in vivo 1 Day Protectant (Septoria tritici—SEPTTR): + + | PHYTIN in vivo 1 Day Protectant [2]: − (<25% control of fungal infection) | LEPTNO in vivo 1 Day Protectant [3]: + + | PLASVI in vivo 1 Day Protectant [4]: − (<25% control of fungal infection) | ERYSGT in vivo 1 Day Protectant (Erysiphe graminis—ERYSGT): − (<25% control of fungal infection)
